Anti-infective test results gathered from many reports (values: NIAID ChemDB through PubChem).

Common to all: tests in culture; species: Herpes simplex virus 1; measure: EC50

ECn: concentration that inhibits the pathogen or its effect by n%. Neighbouring rows are from separate reports. An empty or dashed field is not shown.

| smiles | strain | cells | read by | result |
|---|---|---|---|---|
| CC(=O)OC[C@H]1[C@H](COC(C)=O)[C@@H](COC(C)=O)O[C@H]1n1cnc2c(N)ncnc21 | Clinical isolate HL-34 | MEF | plaque count | 179 µM |
| Nc1nc2c(ncn2CC(CO)OCP(=O)(O)O)c(=O)[nH]1 | S | WI-38 | plaque count | 0.2 µM |
| C[C@H]1[C@H](O)[C@@H](CO)O[C@H]1n1cc(Cl)c(=O)[nH]c1=O | KOS | RPMI8226 | cytopathic effect | >47.4 µg/mL |
| Cn1cc(C(=O)NCc2ccc(Cl)cc2)c(=O)c2cc(CN3CCOCC3)ccc21 | SC16 | HFF | plaque count | 2.5 µM |
| O=c1[nH]c(=O)n([C@H]2C[C@H](O)[C@@H](CO)O2)cc1/C=C/Br | KOS | T-21 | cytopathic effect | 0.005 µg/mL |
| O=C(O)P(=O)(O)O | Ara-A-resistant | RK-13 | plaque count | 57 µM |
| O=C(NCc1ccc(Cl)cc1)c1c[nH]c2c(F)cccc2c1=O | F891C |  |  | 3.3 µM |
| O=C(O)P(=O)(O)O | HL-34 | MEF | plaque count | 13.6 µg/mL |
| Nc1nc2c(ncn2COC(CO)CO)c(=O)[nH]1 | 1760 | VERO H | plaque count | 0.3 µM |
| C[C@@H](c1ccccc1)N(CC(=O)Nc1ccc(-c2csc(N)n2)cc1)C(=O)c1ccncc1 | 294 | BHK-21/C13 | plaque count | 0.1 µM |
| C[C@H]1[C@H](O)[C@@H](CO)O[C@H]1n1cc(Br)c(=O)[nH]c1=O | A4-3 | RPMI8226 | cytopathic effect | >60.4 µg/mL |
| Nc1nc(=O)n([C@@H]2O[C@H](CO)[C@@H](O)[C@@H]2F)cc1I | KOS | ESM | cytopathic effect | 0.01 µg/mL |
| O=C(NCc1ccc(Cl)cc1)c1cn2c3c(cc(CN4CCOCC4)cc3c1=O)OC(c1cccnc1)C2 | 4E | HFF | plaque count | 8.7 µM |
| O=c1[nH]c(=O)n([C@H]2C[C@H](O)[C@@H](CO)O2)cc1I | KOS | RPMI8226 | cytopathic effect | >4.63 µg/mL |
| Nc1nc2c(ncn2CC[C@@H](O)CO)c(=O)[nH]1 | C42 | Primary mouse cells | plaque count | 0.2 µM |
| O=C(NCc1ccc(Cl)cc1)c1c[nH]c2ccc(C#CCO)cc2c1=O | 294 |  | plaque count | 15 µM |
| C[C@H]1[C@H](O)[C@@H](CO)O[C@H]1n1cc(I)c(N)nc1=O | KOS | RPMI8226 | cytopathic effect | 1.36 µg/mL |
| Nc1nc2c(ncn2COCCO)c(=O)[nH]1 | KOS | BALB/3T3 | cytopathic effect | 0.01 µg/mL |
| CC(=O)OC[C@H]1[C@H](COC(C)=O)[C@@H](CO)O[C@H]1n1cnc2c(N)ncnc21 | Clinical isolate HL-34 | MEF | plaque count | 184 µM |
| Nc1nc2c(ncn2COCCO)c(=O)[nH]1 | T28387 acyclovir-resistant | HFF | cytopathic effect | >50 µg/mL |
| O=c1[nH]c(=O)n([C@H]2C[C@H](O)[C@@H](CO)O2)cc1/C=C/Br | McIntyre | Primary rabbit kidney cells | cytopathic effect | 0.02 µg/mL |
| O=C(O)P(=O)(O)O | ANGPR | GMK | plaque count | 601 µM |
| O=C(NCc1ccc(Cl)cc1)c1c[nH]c2c(F)cc(CCCO)cc2c1=O | ARAA9 (N961K (V)) |  |  | 1.4 µM |
| O=c1[nH]c(=O)n([C@@H]2O[C@H](CO)[C@@H](O)[C@@H]2O)cc1/C=C/Br | KOS | BALB/3T3 | cytopathic effect | 0.06 µg/mL |
| Nc1nc2c(ncn2C/C=C\CO)c(=O)[nH]1 | C42 | Primary mouse cells | plaque count | 0.2 µM |

Repeating the first 2 entries:

CC(=O)OC[C@H]1[C@H](COC(C)=O)[C@@H](COC(C)=O)O[C@H]1n1cnc2c(N)ncnc21 ; strain: Clinical isolate HL-34 ; cells: MEF ; read by: plaque count ; result: 179 µM
Nc1nc2c(ncn2CC(CO)OCP(=O)(O)O)c(=O)[nH]1 ; strain: S ; cells: WI-38 ; read by: plaque count ; result: 0.2 µM